# In paper PMC10374146:
# Target: Irr (iron response regulator) (Brucella melitensis M5-90) (UniProt Q842L5)
# Test: EMSA
# Conditions: protein translated in vitro; protein details: Halo (pDAP-Halo-Kan vector); label: biotin
row,Sequence,binding result
1,AGGAATAATCATGCGTCTTAC (double strand) [BME_RS13665-2 (rirA)],binds
2,CATTCTTAAAATATATGAAAC (double strand) [BME_RS13665-1 (rirA)],binds

# For at least one entry, the source does not settle the construct or the ends of the probe. At least one verdict rests on a figure or table, not on a statement of the authors.
